Experimental data taken from ChEMBL document CHEMBL4376895, “Structure and Activity Studies of Disulfide-Deficient Analogues of αO-Conotoxin GeXIVA” (J Med Chem, 2020).

By UniProt entry, the sequences of proteins in these tests, tags left out. Residues count along the entry.
UniProt Q05941, 23-502 limits assumed: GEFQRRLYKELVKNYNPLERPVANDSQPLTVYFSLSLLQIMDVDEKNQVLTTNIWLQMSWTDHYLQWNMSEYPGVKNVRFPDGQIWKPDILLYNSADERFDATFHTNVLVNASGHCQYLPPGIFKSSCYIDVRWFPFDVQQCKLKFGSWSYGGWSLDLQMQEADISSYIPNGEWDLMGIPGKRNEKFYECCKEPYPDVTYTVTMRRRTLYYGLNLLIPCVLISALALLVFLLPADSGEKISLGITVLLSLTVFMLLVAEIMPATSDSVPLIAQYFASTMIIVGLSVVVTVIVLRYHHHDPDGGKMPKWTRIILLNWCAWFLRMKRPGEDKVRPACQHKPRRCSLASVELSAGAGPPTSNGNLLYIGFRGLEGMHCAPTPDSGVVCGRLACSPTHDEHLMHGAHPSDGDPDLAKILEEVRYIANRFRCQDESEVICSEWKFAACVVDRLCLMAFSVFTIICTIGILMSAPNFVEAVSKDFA
UniProt P04757, 26-499 limits assumed: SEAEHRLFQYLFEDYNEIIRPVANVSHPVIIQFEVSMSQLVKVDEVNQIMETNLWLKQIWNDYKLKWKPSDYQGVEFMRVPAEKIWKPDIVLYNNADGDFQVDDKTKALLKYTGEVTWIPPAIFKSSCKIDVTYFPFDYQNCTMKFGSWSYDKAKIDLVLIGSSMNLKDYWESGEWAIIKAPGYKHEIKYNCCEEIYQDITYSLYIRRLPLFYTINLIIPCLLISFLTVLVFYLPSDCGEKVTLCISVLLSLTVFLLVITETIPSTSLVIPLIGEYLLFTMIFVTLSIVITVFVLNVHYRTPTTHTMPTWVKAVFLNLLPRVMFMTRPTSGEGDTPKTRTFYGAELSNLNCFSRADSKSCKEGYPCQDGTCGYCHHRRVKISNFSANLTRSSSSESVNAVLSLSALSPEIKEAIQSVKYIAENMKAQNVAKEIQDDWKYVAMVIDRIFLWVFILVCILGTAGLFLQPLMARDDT
UniProt P12390, 25-500 limits assumed: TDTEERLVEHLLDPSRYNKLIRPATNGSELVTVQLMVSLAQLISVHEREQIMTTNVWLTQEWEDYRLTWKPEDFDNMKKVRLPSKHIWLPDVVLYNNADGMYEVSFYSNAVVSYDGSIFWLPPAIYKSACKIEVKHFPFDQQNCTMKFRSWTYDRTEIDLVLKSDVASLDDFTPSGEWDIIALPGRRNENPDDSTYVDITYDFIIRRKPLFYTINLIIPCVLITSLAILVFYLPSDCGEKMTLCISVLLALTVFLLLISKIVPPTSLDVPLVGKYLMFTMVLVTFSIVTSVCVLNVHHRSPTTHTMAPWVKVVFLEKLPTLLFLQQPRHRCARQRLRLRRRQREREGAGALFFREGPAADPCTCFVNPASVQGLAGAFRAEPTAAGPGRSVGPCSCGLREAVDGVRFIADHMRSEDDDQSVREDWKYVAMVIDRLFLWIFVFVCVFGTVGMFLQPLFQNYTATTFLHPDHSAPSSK
UniProt P43144, 26-479 limits assumed: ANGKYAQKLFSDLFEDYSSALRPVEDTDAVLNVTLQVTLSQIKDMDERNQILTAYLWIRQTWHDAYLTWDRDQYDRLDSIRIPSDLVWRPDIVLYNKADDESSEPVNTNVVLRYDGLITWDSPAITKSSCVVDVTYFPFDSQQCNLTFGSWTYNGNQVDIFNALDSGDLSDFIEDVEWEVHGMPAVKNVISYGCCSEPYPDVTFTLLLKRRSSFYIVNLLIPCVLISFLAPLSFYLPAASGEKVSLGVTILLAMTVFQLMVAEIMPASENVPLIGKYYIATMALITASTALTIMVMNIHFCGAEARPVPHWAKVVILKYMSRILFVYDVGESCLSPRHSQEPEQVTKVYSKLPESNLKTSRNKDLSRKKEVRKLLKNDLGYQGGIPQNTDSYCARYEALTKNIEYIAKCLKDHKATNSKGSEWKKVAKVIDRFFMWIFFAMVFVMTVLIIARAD
UniProt Q9JLB5, 25-447 limits assumed: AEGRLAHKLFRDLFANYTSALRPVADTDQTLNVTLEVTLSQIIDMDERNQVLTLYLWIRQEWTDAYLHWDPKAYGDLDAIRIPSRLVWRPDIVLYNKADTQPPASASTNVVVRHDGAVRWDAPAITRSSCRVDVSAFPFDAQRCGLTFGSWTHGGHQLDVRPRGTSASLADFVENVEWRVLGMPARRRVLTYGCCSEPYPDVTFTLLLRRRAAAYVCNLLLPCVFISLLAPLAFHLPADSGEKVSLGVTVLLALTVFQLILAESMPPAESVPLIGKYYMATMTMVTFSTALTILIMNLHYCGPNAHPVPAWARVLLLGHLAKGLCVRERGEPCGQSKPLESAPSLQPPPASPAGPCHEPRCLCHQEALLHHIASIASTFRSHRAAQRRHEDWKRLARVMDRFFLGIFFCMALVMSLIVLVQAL
UniProt P12392, 21-495 limits assumed: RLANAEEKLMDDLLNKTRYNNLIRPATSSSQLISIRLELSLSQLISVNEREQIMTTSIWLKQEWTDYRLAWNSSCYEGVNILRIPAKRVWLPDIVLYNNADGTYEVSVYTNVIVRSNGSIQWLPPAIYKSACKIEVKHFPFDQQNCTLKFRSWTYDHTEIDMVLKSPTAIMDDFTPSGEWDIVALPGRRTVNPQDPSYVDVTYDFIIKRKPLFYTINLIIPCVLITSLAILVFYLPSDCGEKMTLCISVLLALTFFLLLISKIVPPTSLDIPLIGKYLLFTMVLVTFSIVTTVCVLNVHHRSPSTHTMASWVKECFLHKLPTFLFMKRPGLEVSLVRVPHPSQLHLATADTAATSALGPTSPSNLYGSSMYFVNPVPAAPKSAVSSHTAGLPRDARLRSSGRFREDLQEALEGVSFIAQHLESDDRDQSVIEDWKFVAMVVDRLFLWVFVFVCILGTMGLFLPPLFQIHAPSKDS
UniProt P12389, 28-511 limits assumed: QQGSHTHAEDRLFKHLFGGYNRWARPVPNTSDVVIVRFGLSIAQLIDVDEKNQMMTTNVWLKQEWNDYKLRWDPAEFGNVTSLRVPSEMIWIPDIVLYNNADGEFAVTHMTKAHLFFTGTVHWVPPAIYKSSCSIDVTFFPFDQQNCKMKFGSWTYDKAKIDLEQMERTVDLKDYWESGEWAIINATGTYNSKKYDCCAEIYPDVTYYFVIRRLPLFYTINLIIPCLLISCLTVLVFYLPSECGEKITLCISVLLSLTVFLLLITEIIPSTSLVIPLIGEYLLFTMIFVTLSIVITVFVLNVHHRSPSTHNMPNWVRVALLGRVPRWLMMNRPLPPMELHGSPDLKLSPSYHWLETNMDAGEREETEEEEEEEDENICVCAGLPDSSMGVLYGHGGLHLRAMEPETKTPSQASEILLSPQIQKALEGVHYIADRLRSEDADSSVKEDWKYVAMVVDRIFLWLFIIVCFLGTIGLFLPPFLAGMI

Legend:
[1] = target: Neuronal acetylcholine receptor subunit alpha-7 (Rattus norvegicus, UniProt Q05941)
[2] = target: Neuronal acetylcholine receptor; alpha3/beta2 (Rattus norvegicus, UniProt P04757+P12390)
[3] = target: Nicotinic acetylcholine receptor alpha9/alpha10 (Rattus norvegicus, UniProt P43144+Q9JLB5)
[4] = target: Neuronal acetylcholine receptor; alpha3/beta4 (Rattus norvegicus, UniProt P04757+P12392)
[5] = target: Neuronal acetylcholine receptor; alpha2/beta2 (Rattus norvegicus, UniProt P12389+P12390)

Compound	IC50 [1] [µM]	IC50 [2] [µM]	IC50 [3] [µM]	IC50 [4] [µM]	IC50 [5] [µM]
CC[C@H](C)[C@H](NC(=O)[C@H](CCCNC(=N)N)NC(=O)[C@H](CCCNC(=N)N)NC(=O)[C@H](C)NC(=O)[C@H](Cc1ccc(O)cc1)NC(=O)[C@H](CCCNC(=N)N)NC(=O)[C@H](CCCNC(=N)N)NC(=O)[C@H](CCCNC(=N)N)NC(=O)[C@H](CCCNC(=N)N)NC(=O)[C@H](CC(=O)O)NC(=O)[C@H](Cc1ccc(O)cc1)NC(=O)[C@@H]1CCCN1C(=O)[C@H](CO)NC(=O)[C@H](CCCNC(=N)N)NC(=O)[C@@H]1CSSC[C@H](NC(=O)[C@@H](N)[C@@H](C)O)C(=O)N[C@@H](CCCNC(=N)N)C(=O)N[C@@H](CO)C(=O)N[C@@H](CO)C(=O)NCC(=O)N[C@@H](CCCNC(=N)N)C(=O)N[C@@H](Cc2ccc(O)cc2)C(=O)N1)C(=O)N[C@H](C(=O)N[C@@H](CC(=O)O)C(=O)N[C@@H](C)C(=O)N[C@@H](C)C(=O)N[C@H](C(=O)O)C(C)C)[C@@H](C)O	1.4	3.25	0.014	6.13	3.12
CC[C@H](C)[C@H](NC(=O)[C@H](CCCNC(=N)N)NC(=O)[C@H](CCCNC(=N)N)NC(=O)[C@H](CO)NC(=O)[C@H](Cc1ccc(O)cc1)NC(=O)[C@H](CCCNC(=N)N)NC(=O)[C@H](CCCNC(=N)N)NC(=O)[C@H](CCCNC(=N)N)NC(=O)[C@H](CCCNC(=N)N)NC(=O)[C@H](CC(=O)O)NC(=O)[C@H](Cc1ccc(O)cc1)NC(=O)[C@@H]1CCCN1C(=O)[C@H](CO)NC(=O)[C@H](CCCNC(=N)N)NC(=O)[C@H](CO)NC(=O)[C@H](Cc1ccc(O)cc1)NC(=O)[C@H](CCCNC(=N)N)NC(=O)CNC(=O)[C@H](CO)NC(=O)[C@H](CO)NC(=O)[C@H](CCCNC(=N)N)NC(=O)[C@H](CO)NC(=O)[C@@H](N)[C@@H](C)O)C(=O)N[C@H](C(=O)N[C@@H](CC(=O)O)C(=O)N[C@@H](C)C(=O)N[C@@H](CO)C(=O)N[C@H](C(=O)O)C(C)C)[C@@H](C)O	1.69	2.09	0.016	6.63	7.52
CC[C@H](C)[C@@H]1NC(=O)[C@H](CCCNC(=N)N)NC(=O)[C@H](CCCNC(=N)N)NC(=O)[C@H](C)NC(=O)[C@H](Cc2ccc(O)cc2)NC(=O)[C@H](CCCNC(=N)N)NC(=O)[C@H](CCCNC(=N)N)NC(=O)[C@H](CCCNC(=N)N)NC(=O)[C@H](CCCNC(=N)N)NC(=O)[C@H](CC(=O)O)NC(=O)[C@H](Cc2ccc(O)cc2)NC(=O)[C@@H]2CCCN2C(=O)[C@H](CO)NC(=O)[C@H](CCCNC(=N)N)NC(=O)[C@H](C)NC(=O)[C@H](Cc2ccc(O)cc2)NC(=O)[C@H](CCCNC(=N)N)NC(=O)CNC(=O)[C@H](CO)NC(=O)[C@H](CO)NC(=O)[C@H](CCCNC(=N)N)NC(=O)[C@@H](NC(=O)[C@@H](N)[C@@H](C)O)CSSC[C@@H](C(=O)N[C@H](C(=O)O)C(C)C)NC(=O)[C@H](C)NC(=O)[C@H](CC(=O)O)NC(=O)[C@H]([C@@H](C)O)NC1=O	3.36	1.05	0.036	4.75	3.98
CC[C@H](C)[C@H](NC(=O)[C@H](CCCNC(=N)N)NC(=O)[C@H](CCCNC(=N)N)NC(=O)[C@@H]1CSSC[C@H](NC(=O)[C@H](Cc2ccc(O)cc2)NC(=O)[C@H](CCCNC(=N)N)NC(=O)CNC(=O)[C@H](CO)NC(=O)[C@H](CO)NC(=O)[C@H](CCCNC(=N)N)NC(=O)[C@H](C)NC(=O)[C@@H](N)[C@@H](C)O)C(=O)N[C@@H](CCCNC(=N)N)C(=O)N[C@@H](CO)C(=O)N2CCC[C@H]2C(=O)N[C@@H](Cc2ccc(O)cc2)C(=O)N[C@@H](CC(=O)O)C(=O)N[C@@H](CCCNC(=N)N)C(=O)N[C@@H](CCCNC(=N)N)C(=O)N[C@@H](CCCNC(=N)N)C(=O)N[C@@H](CCCNC(=N)N)C(=O)N[C@@H](Cc2ccc(O)cc2)C(=O)N1)C(=O)N[C@H](C(=O)N[C@@H](CC(=O)O)C(=O)N[C@@H](C)C(=O)N[C@@H](C)C(=O)N[C@H](C(=O)O)C(C)C)[C@@H](C)O	4.58	1.37	0.017	6.31	2.99
CC[C@H](C)[C@H](NC(=O)[C@H](CCCNC(=N)N)NC(=O)[C@H](CCCNC(=N)N)NC(=O)[C@H](C)NC(=O)[C@H](Cc1ccc(O)cc1)NC(=O)[C@H](CCCNC(=N)N)NC(=O)[C@H](CCCNC(=N)N)NC(=O)[C@H](CCCNC(=N)N)NC(=O)[C@H](CCCNC(=N)N)NC(=O)[C@H](CC(=O)O)NC(=O)[C@H](Cc1ccc(O)cc1)NC(=O)[C@@H]1CCCN1C(=O)[C@H](CO)NC(=O)[C@H](CCCNC(=N)N)NC(=O)[C@H](CO)NC(=O)[C@H](Cc1ccc(O)cc1)NC(=O)[C@H](CCCNC(=N)N)NC(=O)CNC(=O)[C@H](CO)NC(=O)[C@H](CO)NC(=O)[C@H](CCCNC(=N)N)NC(=O)[C@H](CO)NC(=O)[C@@H](N)[C@@H](C)O)C(=O)N[C@H](C(=O)N[C@@H](CC(=O)O)C(=O)N[C@@H](C)C(=O)N[C@@H](C)C(=O)N[C@H](C(=O)O)C(C)C)[C@@H](C)O	4.11	3.71	0.013	5.75	4.9
CC[C@H](C)[C@@H]1NC(=O)[C@H](CCCNC(=N)N)NC(=O)[C@H](CCCNC(=N)N)NC(=O)[C@@H](NC(=O)[C@H](Cc2ccc(O)cc2)NC(=O)[C@H](CCCNC(=N)N)NC(=O)[C@H](CCCNC(=N)N)NC(=O)[C@H](CCCNC(=N)N)NC(=O)[C@H](CCCNC(=N)N)NC(=O)[C@H](CC(=O)O)NC(=O)[C@H](Cc2ccc(O)cc2)NC(=O)[C@@H]2CCCN2C(=O)[C@H](CO)NC(=O)[C@H](CCCNC(=N)N)NC(=O)[C@H](C)NC(=O)[C@H](Cc2ccc(O)cc2)NC(=O)[C@H](CCCNC(=N)N)NC(=O)CNC(=O)[C@H](CO)NC(=O)[C@H](CO)NC(=O)[C@H](CCCNC(=N)N)NC(=O)[C@H](C)NC(=O)[C@@H](N)[C@@H](C)O)CSSC[C@@H](C(=O)N[C@H](C(=O)O)C(C)C)NC(=O)[C@H](C)NC(=O)[C@H](CC(=O)O)NC(=O)[C@H]([C@@H](C)O)NC1=O	1.71	4.74	0.005 to 0.02	> 10	9.45
CC[C@H](C)[C@H](NC(=O)[C@H](CCCNC(=N)N)NC(=O)[C@H](CCCNC(=N)N)NC(=O)[C@H](CO)NC(=O)[C@H](Cc1ccc(O)cc1)NC(=O)[C@H](CCCNC(=N)N)NC(=O)[C@H](CCCNC(=N)N)NC(=O)[C@H](CCCNC(=N)N)NC(=O)[C@H](CCCNC(=N)N)NC(=O)[C@H](CC(=O)O)NC(=O)[C@H](Cc1ccc(O)cc1)NC(=O)[C@@H]1CCCN1C(=O)[C@H](CO)NC(=O)[C@H](CCCNC(=N)N)NC(=O)[C@@H]1CSSC[C@H](NC(=O)[C@@H](N)[C@@H](C)O)C(=O)N[C@@H](CCCNC(=N)N)C(=O)N[C@@H](CO)C(=O)N[C@@H](CO)C(=O)NCC(=O)N[C@@H](CCCNC(=N)N)C(=O)N[C@@H](Cc2ccc(O)cc2)C(=O)N1)C(=O)N[C@H](C(=O)N[C@@H](CC(=O)O)C(=O)N[C@@H](C)C(=O)N[C@@H](CO)C(=O)N[C@H](C(=O)O)C(C)C)[C@@H](C)O	1.08	2.78	0.011	4.28	9.12
CC[C@H](C)[C@@H]1NC(=O)[C@H](CCCNC(=N)N)NC(=O)[C@H](CCCNC(=N)N)NC(=O)[C@H](CO)NC(=O)[C@H](Cc2ccc(O)cc2)NC(=O)[C@H](CCCNC(=N)N)NC(=O)[C@H](CCCNC(=N)N)NC(=O)[C@H](CCCNC(=N)N)NC(=O)[C@H](CCCNC(=N)N)NC(=O)[C@H](CC(=O)O)NC(=O)[C@H](Cc2ccc(O)cc2)NC(=O)[C@@H]2CCCN2C(=O)[C@H](CO)NC(=O)[C@H](CCCNC(=N)N)NC(=O)[C@H](CO)NC(=O)[C@H](Cc2ccc(O)cc2)NC(=O)[C@H](CCCNC(=N)N)NC(=O)CNC(=O)[C@H](CO)NC(=O)[C@H](CO)NC(=O)[C@H](CCCNC(=N)N)NC(=O)[C@@H](NC(=O)[C@@H](N)[C@@H](C)O)CSSC[C@@H](C(=O)N[C@H](C(=O)O)C(C)C)NC(=O)[C@H](C)NC(=O)[C@H](CC(=O)O)NC(=O)[C@H]([C@@H](C)O)NC1=O	1.51	1.18	0.013	3.66	2.16
CC[C@H](C)[C@H](NC(=O)[C@H](CCCNC(=N)N)NC(=O)[C@H](CCCNC(=N)N)NC(=O)[C@H](C)NC(=O)[C@H](Cc1ccc(O)cc1)NC(=O)[C@H](CCCNC(=N)N)NC(=O)[C@H](CCCNC(=N)N)NC(=O)[C@H](CCCNC(=N)N)NC(=O)[C@H](CCCNC(=N)N)NC(=O)[C@H](CC(=O)O)NC(=O)[C@H](Cc1ccc(O)cc1)NC(=O)[C@@H]1CCCN1C(=O)[C@H](CO)NC(=O)[C@H](CCCNC(=N)N)NC(=O)[C@H](C)NC(=O)[C@H](Cc1ccc(O)cc1)NC(=O)[C@H](CCCNC(=N)N)NC(=O)CNC(=O)[C@H](CO)NC(=O)[C@H](CO)NC(=O)[C@H](CCCNC(=N)N)NC(=O)[C@H](C)NC(=O)[C@@H](N)[C@@H](C)O)C(=O)N[C@H](C(=O)N[C@@H](CC(=O)O)C(=O)N[C@@H](C)C(=O)N[C@@H](C)C(=O)N[C@H](C(=O)O)C(C)C)[C@@H](C)O	3.56	3.57	0.014	8.99	7.51
CC[C@H](C)[C@H](NC(=O)[C@H](CCCNC(=N)N)NC(=O)[C@H](CCCNC(=N)N)NC(=O)[C@@H]1CSSC[C@H](NC(=O)[C@H](Cc2ccc(O)cc2)NC(=O)[C@H](CCCNC(=N)N)NC(=O)CNC(=O)[C@H](CO)NC(=O)[C@H](CO)NC(=O)[C@H](CCCNC(=N)N)NC(=O)[C@H](CO)NC(=O)[C@@H](N)[C@@H](C)O)C(=O)N[C@@H](CCCNC(=N)N)C(=O)N[C@@H](CO)C(=O)N2CCC[C@H]2C(=O)N[C@@H](Cc2ccc(O)cc2)C(=O)N[C@@H](CC(=O)O)C(=O)N[C@@H](CCCNC(=N)N)C(=O)N[C@@H](CCCNC(=N)N)C(=O)N[C@@H](CCCNC(=N)N)C(=O)N[C@@H](CCCNC(=N)N)C(=O)N[C@@H](Cc2ccc(O)cc2)C(=O)N1)C(=O)N[C@H](C(=O)N[C@@H](CC(=O)O)C(=O)N[C@@H](C)C(=O)N[C@@H](CO)C(=O)N[C@H](C(=O)O)C(C)C)[C@@H](C)O	3.02	1.57	0.021	7.57	2.23
